Compound potency records, mixed from different reports. Data source: NIAID ChemDB in PubChem.

Shared fields: whole-cell or culture tests; agent: Hepatitis C virus; measure: EC50

An empty or dashed field is not shown.

compound	conditions	strain or isolate	cells	read by	changes	result
COc1cc(C(=O)N2[C@@H](c3nccs3)[C@@H](c3cnccn3)C[C@@]2(CCS(C)(=O)=O)C(=O)O)ccc1C(C)(C)C	-	Genotype 1A	Huh7	replicon	-	>100 µM
C=C[C@@H]1C[C@]1(NC(=O)[C@@H]1C[C@@H](Oc2nc(-c3ccccc3)cs2)CN1C(=O)[C@@H](NC(=O)OC(C)(C)C)C(C)(C)C)C(=O)NS(=O)(=O)C1CC1	-	BMS	Huh7	replicon	-	1–10 µM
OC[C@H]1O[C@@H](n2cnc3cncnc32)[C@H](O)[C@@]1(O)CF	-	genotype 1	Huh 5-2	luciferase	-	>100 µM
CN(N)c1nc(N)nc2c1ncn2[C@@H]1O[C@H](COP(=O)(OCCSC(=O)C(C)(C)C)OCCC(=O)C(C)(C)C)[C@@H](O)[C@@]1(C)O	-	-	Huh7	replicon	-	0.0069 µM
COc1nc(N)nc2c1ncn2[C@@H]1O[C@H](COP(=O)(N[C@@H](C)C(=O)OCC(C)(C)C)Oc2cccc3ccccc23)[C@@H](O)[C@@]1(C)O	24 h	1a	Huh7	PCR	-	0.012 µM
O=C(NS(=O)(=O)C1CC1)c1c(-c2ccc[nH]c2=O)c2c3occc3c(F)cc2n1Cc1cc([N+](=O)[O-])ccc1F	-	-	-	replicon	-	<0.5 µM
C[C@@]1(O)[C@H](O)[C@@H](CO)O[C@H]1n1cnc2c(N)ncnc21	-	genotype 1	Huh 5-2	luciferase	-	0.3 µM
CC(C)(C)C(=O)CCOP(=O)(OCCSC(=O)C(C)(C)C)OC[C@H]1O[C@@H](n2cnc3c(NNS(C)(=O)=O)nc(N)nc32)[C@](C)(O)[C@@H]1O	-	-	Huh7	replicon	-	0.2 µM
COc1cc(C(=O)N2[C@@H](c3ncc(C)s3)[C@@H](c3cnccn3)C[C@@]2(Cn2cccn2)C(=O)O)ccc1C(C)(C)C	-	genotype 1b	Huh7	replicon	-	<0.1 µM
CNC(=O)c1c(-c2ccc(F)cc2)oc2cc(N)c(OC(C)C)cc12	-	-	Huh7	replicon	-	<10 µM
Cc1cc(NC(=O)C2(NC(=O)c3ccc4c(c3)nc(-c3ccoc3)n4C3CCCCC3)CCCC2)ccc1/C=C/C(=O)O	-	-	Huh7	-	-	≤5 µM
[N-]=[N+]=NC[C@@]1(O)[C@@H](CO)O[C@@H](n2cnc3c(=O)[nH]cnc32)[C@@H]1O	-	genotype 1	Huh 5-2	luciferase	-	>100 µM
CN(N)c1ncnc2c1ncn2[C@@H]1O[C@H](CO)[C@@H](O)[C@@]1(C)O	-	-	Huh7	replicon	-	15 µM
CNC(=O)c1c(-c2ccc(F)cc2)oc2cc(-c3nocc3CCO)c(OC)cc12	-	-	Huh7	replicon	-	<1 µM
C=C[C@@H]1C[C@]1(NC(=O)[C@@H]1C[C@@H](Oc2nccc3ccccc23)CN1C(=O)OC(C)(C)C)C(=O)NS(=O)(=O)C1CC1	-	BMS	Huh7	replicon	-	0.1–1 µM
COc1cc(C(=O)N2[C@@H](c3nccs3)[C@@H](c3cnccn3)C[C@@]2(Cc2nccs2)C(=O)O)ccc1C(C)(C)C	-	genotype 1b	Huh7	replicon	-	<0.1 µM
COc1ccc(S(=O)(=O)NC(=O)c2c(-c3ccc[nH]c3=O)c3c4ccoc4ccc3n2Cc2ccc(F)cc2F)cc1	-	-	-	replicon	-	>1.5 µM
C=CCC(NC(=O)[C@H]1C[C@@H](Oc2ccnc3ccccc23)CN1C(=O)[C@@H](NC(=O)OC(C)(C)C)C(C)(C)C)C(=O)NS(=O)(=O)C1CC1	-	BMS	Huh7	replicon	-	0.1–1 µM
CC(NC(=O)c1ccc2c(c1)nc(-c1ccoc1)n2C1CCCCC1)C(=O)Nc1cccc(-c2cccc(N)c2)c1	-	-	Huh7	-	-	5–50 µM
COC(=O)c1ccc(F)c(Cn2c(C(=O)NS(=O)(=O)C3CC3)c(-c3ccc[nH]c3=O)c3c4occc4ccc32)c1	-	-	-	replicon	-	<0.5 µM
CC(C)(C)C(=O)CCOP(=O)(OCCSC(=O)C(C)(C)C)OC[C@H]1O[C@@H](n2cnc3c(NNS(C)(=O)=O)ncnc32)[C@](C)(O)[C@@H]1O	-	-	Huh7	replicon	-	4.7 µM
O=C(O)/C=C/c1ccc(NC(=O)C2(NC(=O)c3ccc4c(c3)nc(-c3ccoc3)n4C3CCCC3)CCCC2)cc1	-	-	Huh7	-	-	5–50 µM
CCc1cc2c(C(=O)NC)c(-c3ccc(F)cc3)oc2cc1N(CCOC)S(C)(=O)=O	-	-	Huh7	replicon	-	<1 µM
CN(C)Nc1ncnc2c1ncn2[C@@H]1O[C@H](CO)[C@@H](O)[C@@]1(C)O	-	-	Huh7	replicon	-	5 µM
O=C(N[C@@H](C(=O)N1CCC[C@H]1c1ncc(-c2ccc(-c3ccc(-c4cnc([C@@H]5CCCN5C(=O)[C@H](NC(=O)C5CC5)c5ccccc5)s4)cc3)cc2)s1)c1ccccc1)C1CC1	-	genotype 1b	Huh7.5	luciferase / reporter gene	M265V	0.000002 µM
CS(=O)(=O)NC(=O)c1c(-c2ccc[nH]c2=O)c2c3ccccc3ccc2n1Cc1ccnc(N)c1	-	-	-	replicon	-	>10 µM
C=C[C@@H]1C[C@@]1(NC(=O)[C@H]1C[C@@H](Oc2nnc(OCC)c3ccccc23)CN1C(=O)[C@@H](N)C(C)(C)C)C(=O)NS(=O)(=O)C1CC1	-	BMS	Huh7	replicon	-	<0.1 µM
CNC(=O)c1c(-c2ccc(F)cc2)oc2cc(O)c(OC)cc12	-	-	Huh7	replicon	-	<30 µM
C=CC[C@](C)(NC(=O)[C@H]1C[C@@H](Oc2cc(C(F)(F)F)nc3ccc(F)cc23)CN1C(=O)[C@@H](NC(=O)OC(C)(C)C)C(C)(C)C)C(=O)NS(=O)(=O)C1CC1	-	BMS	Huh7	replicon	-	0.1–1 µM
COc1cc(C(=O)N2[C@@H](c3nccs3)[C@@H](c3cnccn3)C[C@@]2(Cc2ccccc2)C(=O)O)ccc1C(C)(C)C	-	genotype 1b	Huh7	replicon	-	0.1–10 µM
O=C(NS(=O)(=O)C1CC1)c1c(-c2ccc[nH]c2=O)c2c3c(ccc2n1Cc1ccccc1F)CCCO3	-	-	-	replicon	-	<1 µM
CNC(=O)c1c(-c2ccc(F)cc2)oc2cc(N(C)S(C)(=O)=O)c(OCc3c(C)noc3C)cc12	-	-	Huh7	replicon	-	<1 µM
CN(NS(C)(=O)=O)c1nc(N)nc2c1ncn2[C@@H]1O[C@H](COP(=O)(OCCSC(=O)C(C)(C)C)OCCC(=O)C(C)(C)C)[C@@H](O)[C@@]1(C)O	-	-	Huh7	replicon	-	0.024 µM
CNC(=O)c1c(-c2ccc(F)cc2)oc2cc(N(C)S(C)(=O)=O)c(OCc3ccc(S(C)(=O)=O)cc3)cc12	-	-	Huh7	replicon	-	<1 µM
O=C(NS(=O)(=O)C1CC1)c1ccc(F)c(Cn2c(C(=O)NS(=O)(=O)C3CC3)c(-c3ccc[nH]c3=O)c3c4occc4c(F)cc32)c1	-	-	-	replicon	-	0.5–1.5 µM
CCN1CCC(NC(=O)c2ccc3c(c2)nc(-c2ccoc2)n3C2CCCCC2)(C(=O)Nc2ccc(-c3nc(C(=O)O)cs3)cc2)CC1	-	-	Huh7	-	-	≤5 µM
CNC(=O)c1c(-c2ccc(F)cc2)oc2cc(N3CCOCC3)c(OCc3nnnn3C)cc12	-	-	Huh7	replicon	-	<10 µM
COc1cc(C(=O)N2[C@@H](c3nccs3)[C@@H](c3cnccn3)C[C@@]2(Cc2cnc[nH]2)C(=O)O)ccc1C(C)(C)C	-	Genotype 1A	Huh7	replicon	-	>100 µM
Nc1cc(Cn2c(C(=O)NS(=O)(=O)c3ccccc3)c(-c3ccc[nH]c3=O)c3c4ccccc4ccc32)ccn1	-	-	-	replicon	-	1–10 µM
C=C[C@@H]1C[C@]1(NC(=O)[C@@H]1C[C@@H](S(=O)(=O)Cc2ccc3ccccc3c2)CN1C(=O)[C@@H](NC(=O)OC(C)(C)C)C(C)(C)C)C(=O)NS(C)(=O)=O	-	BMS	Huh7	replicon	-	1–10 µM

4 of the rows above, restated:

compound | conditions | strain or isolate | cells | read by | changes | result
CN(N)c1ncnc2c1ncn2[C@@H]1O[C@H](CO)[C@@H](O)[C@@]1(C)O | - | - | Huh7 | replicon | - | 15 µM
CN(NS(C)(=O)=O)c1nc(N)nc2c1ncn2[C@@H]1O[C@H](COP(=O)(OCCSC(=O)C(C)(C)C)OCCC(=O)C(C)(C)C)[C@@H](O)[C@@]1(C)O | - | - | Huh7 | replicon | - | 0.024 µM
CNC(=O)c1c(-c2ccc(F)cc2)oc2cc(N(C)S(C)(=O)=O)c(OCc3ccc(S(C)(=O)=O)cc3)cc12 | - | - | Huh7 | replicon | - | <1 µM
[N-]=[N+]=NC[C@@]1(O)[C@@H](CO)O[C@@H](n2cnc3c(=O)[nH]cnc32)[C@@H]1O | - | genotype 1 | Huh 5-2 | luciferase | - | >100 µM

ECn is the concentration giving n% inhibition of infection, replication or growth. Two numbers with a dash give a range or band. Neighbouring rows are from separate reports.